Results of unrelated studies side by side (data: NIAID ChemDB).

Common to all: host cell toxicity; cells: C8166; read-out: CC50

Conditions beyond the fields shown may differ between rows. CCn: concentration that lowers growth or viability of the cells by n%. Blank or dashed fields: not listed here.

structure | method | value
O=c1c2cccn2ccn1CCNC(=S)Nc1ccc(Br)cn1 | - | 22.5 µM
CS(=O)(=O)O[C@H]1C[C@H](n2ccc(=O)[nH]c2=O)O[C@@H]1COP(=O)(OCC(Cl)(Cl)Cl)OCC(Cl)(Cl)Cl | - | >100 µM
NS(=O)(=O)c1ccc(NC(=O)COc2ccccc2NS(=O)(=O)c2ccc(Cl)cc2)cc1 | MTT | 201 µM
O=C(CC1(O)C(=O)Nc2ccccc21)c1cccc(Br)c1 | MTT | >400 µM
Cc1cn([C@H]2C[C@H](OS(C)(=O)=O)[C@@H](COP(=O)(OCC(Cl)(Cl)Cl)OCC(Cl)(Cl)Cl)O2)c(=O)[nH]c1=O | - | >100 µM
CN(C)Nc1ccn([C@H]2C[C@H](N=[N+]=[N-])[C@@H](CO)O2)c(=O)n1 | - | 500 µM
Cc1cn([C@H]2C[C@H](N=[N+]=[N-])[C@@H](CO)O2)c(=O)[nH]c1=O | MTT | 1370 µM
COC(=O)CCC(C)[C@H]1CCC2C3CC[C@@H]4C[C@H](OC(=O)c5ccccc5)CC[C@]4(C)C3=C(NC(=O)C(C)(C)C)C(=O)[C@@]21C | - | 1000 µM
CCOC(=O)c1ccc(COP(=O)(OCc2ccc(C(=O)OCC)cc2)OC[C@H]2O[C@@H](n3cc(C)c(=O)[nH]c3=O)C[C@@H]2N=[N+]=[N-])cc1 | MTT | 1 µM
CO[C@H]1/C=C/O[C@@]2(C)Oc3c(C)c(O)c4c(c3C2=O)C(=O)C(SCCOC(=O)CCCC(=O)OC[C@@H]2O[C@H](n3cc(C)c(=O)[nH]c3=O)C[C@H]2N=[N+]=[N-])=C(NC(=O)/C(C)=C\C=C\[C@H](C)[C@@H]2OC(C)(C)O[C@@H]([C@@H](C)[C@H](OC(C)=O)[C@@H]1C)[C@@H]2C)C4=O | - | >30 µM
CC(C)(C)CC(C)(C)c1ccc(OCCOCCOCCOCCOCCOCCOCCOCCOCCO)cc1 | - | >10 µg/mL
Cc1cc(S(N)(=O)=O)ccc1NC(=O)COc1ccc(Cl)cc1C(=O)c1cc(Cl)cc(C#N)c1 | MTT | >386.8 µM
Cc1cn([C@H]2C[C@H](N=[N+]=[N-])[C@@H](COP(=O)(OCc3ccc(C(=O)OC(C)(C)C)cc3)OCc3ccc(C(=O)OC(C)(C)C)cc3)O2)c(=O)[nH]c1=O | MTT | >100 µM
COc1ccccc1C(=O)CC1(O)C(=O)Nc2ccc(Cl)cc21 | MTT | >400 µM
CC(C)=CC(=O)C[C@@H](C)[C@H]1CC[C@@]2(C)C3C(=O)[C@@H]4O[C@]45C(CCC(=O)C5(C)C)[C@]3(C=O)CC[C@]12C | - | >200 µg/mL
COC(=O)c1ccc(COP(=O)(O)OC[C@H]2O[C@@H](n3cc(C)c(=O)[nH]c3=O)C[C@@H]2N=[N+]=[N-])cc1 | MTT | 500 µM
COc1ccc(S(=O)(=O)Nc2cc(Cl)ccc2OCC(=O)Nc2ccc(S(N)(=O)=O)cc2C)cc1 | MTT | 123 µM
CC(C)C[C@H](NC(=O)[C@H](CC(=O)OS(=O)(=O)O)NC(=O)[C@@H](N)Cc1ccc(OS(=O)(=O)O)cc1)C(=O)N[C@@H](CC(=O)OS(=O)(=O)O)C(=O)N[C@@H](Cc1ccc(OS(=O)(=O)O)cc1)C(=O)N[C@@H](Cc1ccc(OS(=O)(=O)O)cc1)C(=O)O.CCN(CC)CC.CCN(CC)CC.CCN(CC)CC.CCN(CC)CC.CCN(CC)CC | - | >1000 µg/mL
CCCCCCCCCc1ccc(OCCOCCOCCOCCOCCOCCOCCOCCOCCO)cc1 | - | >10 µg/mL
O=C(CC1(O)C(=O)Nc2ccc(Cl)cc21)c1cccc([N+](=O)[O-])c1 | MTT | 121.1 µM
CC(=O)[C@]12CCC(C)(C)C=C1C1=CCC3[C@@]4(C)CCC(=O)C(C)(C)C4CC[C@@]3(C)[C@]1(C)CC2 | MTT | 29.18 µM
Cc1ccc(S(=O)(=O)Nc2cc(Cl)ccc2OCC(=O)Nc2ccc(S(N)(=O)=O)cc2C)cc1 | MTT | >382 µM
C[C@@H]1CC[C@@]2(O)C13CC(=O)C1(C)C2(C)CO[C@]1(OC(=O)c1ccccc1)[C@@H]3O | MTT | 238.2 µM
O=C(CC1(O)C(=O)Nc2ccccc21)c1ccccc1Cl | MTT | >400 µM
C=C(C)[C@@]1(OC(=O)c2ccccc2)[C@H](OC(C)=O)[C@@H]2[C@H](OC(C)=O)[C@@]3(C)O[C@@]4([C@@H]3OC(=O)c3ccccc3)[C@@H](OC(C)=O)[C@@H](C)C[C@H]4[C@@]2(O)[C@H](C)[C@@H]1OC(C)=O | MTT | 97.92 µg/mL
O=C(CC1(O)C(=O)Nc2ccc(Br)cc21)c1ccc(F)cc1 | MTT | >400 µM
Cc1cn([C@H]2C[C@H](N=[N+]=[N-])[C@@H](CO)O2)c(=O)nc1N(C)C | - | >1000 µM
O=C(CC1(O)C(=O)Nc2ccc(Cl)cc21)c1ccc(F)cc1 | MTT | 124.4 µM
Cc1cn([C@H]2C[C@H](N=[N+]=[N-])[C@@H](CO)O2)c(=O)nc1NN(C)C | - | >1000 µM
O=c1c2cccn2c2ccccc2n1CCNC(=S)Nc1ccc(Cl)cn1 | - | 11 µM
COc1ccc(S(=O)(=O)Nc2ccccc2OCC(=O)Nc2ccc(S(N)(=O)=O)cc2C)cc1 | MTT | 172.4 µM
CC[C@@]1(O)C(=O)OCc2c1cc1n(c2=O)Cc2c-1nc1ccccc1c2CO | MTT | 0.1585 µg/mL
C=C(C)[C@@]1(O)[C@H](O)[C@@H]2[C@H](OC(C)=O)[C@@]3(C)O[C@@]4([C@@H]3OC(=O)c3ccccc3)[C@@H](OC(C)=O)[C@@H](C)C[C@H]4[C@@]2(O)[C@H](C)[C@@H]1OC(=O)c1ccccc1 | MTT | >200 µg/mL
O=C1c2ccncc2C(=O)N1CCNC(=S)Nc1ccc(Br)cn1 | - | 52 µM
O=C(Nc1ccc([N+](=O)[O-])cc1)OC(CN1CCCc2ccccc21)c1ccc(Cl)cc1 | MTT / absorbance | 18.95 µg/mL
C=C(C)[C@@]1(O)[C@H](OC(C)=O)[C@@H]2[C@H](OC(C)=O)[C@@]3(C)O[C@@]4([C@@H]3OC(=O)c3ccccc3)[C@@H](O)[C@@H](C)C[C@H]4[C@@]2(O)[C@H](C)[C@@H]1OC(=O)c1ccccc1 | MTT | 183.4 µg/mL
C[C@H](C/C=C/C(C)(C)O)[C@H]1CC[C@@]2(C)C3C=C[C@@]45O[C@H](O)[C@]3(CC[C@]12C)C4CC[C@H](O)C5(C)C | - | 60 µg/mL
C=C(C)[C@@]1(OC(=O)c2ccccc2)[C@H](OC(C)=O)[C@@H]2[C@H](OC(C)=O)[C@@]3(C)O[C@@]4([C@@H]3OC(C)=O)[C@@H](OC(C)=O)[C@@H](C)C[C@H]4[C@@]2(O)[C@H](C)[C@@H]1OC(C)=O | MTT | 86.54 µg/mL
Cc1cn([C@H]2C[C@H](N=[N+]=[N-])[C@@H](COP(=O)(O)OCc3ccc(C(=O)OC(C)C)cc3)O2)c(=O)[nH]c1=O | MTT | 500 µM
C=CCc1cc(O)c2c(c1)OCO2 | MTT | 439.5 µM
CC(C)=CCN1Cc2cc(Cl)cc3[nH]c(=S)n(c23)C[C@@H]1C | - | >10 µM
CC1(C)C(=O)CCC2[C@]34CC[C@]5(C)C(=O)CC[C@@]5(C)C3C=C[C@@]21OC4=O | - | >200 µg/mL
CCOC(=O)NC1=C2C(CC[C@@H]3C[C@H](OC(=O)c4ccccc4)CC[C@]23C)C2CC[C@H](C(C)CCC(=O)OC)[C@@]2(C)C1=O | - | 100 µM
CC(=O)[C@]12CCC(C)(C)CC1C1=CCC3[C@@]4(C)CCC(=O)C(C)(C)C4[C@H](O)C[C@@]3(C)[C@]1(C)CC2 | MTT | 27.97 µM
C=C(C)[C@@H]1CCC2C3(CC[C@]4(C)C(C(C)CC/C=C(/C)C(=O)OC)CC[C@@]24C)CC13CCC(=O)O | MTT | 78.7 µM
C=C(C)[C@@]1(O)[C@H](OC(=O)c2ccccc2)[C@@H]2[C@H](OC(C)=O)[C@@]3(C)O[C@@]4([C@@H]3OC(=O)c3ccccc3)[C@@H](OC(C)=O)[C@@H](C)C[C@H]4[C@@]2(O)[C@H](C)[C@@H]1O | MTT | 54.04 µg/mL
C=CCc1cc2c(cc1OCC=C(C)C)OCO2 | MTT | 360.7 µM
COC(=O)c1ccc(COP(=O)(OCc2ccc(C(=O)OC)cc2)OC[C@H]2O[C@@H](n3cc(C)c(=O)[nH]c3=O)C[C@@H]2N=[N+]=[N-])cc1 | MTT | 50 µM
Nc1ncnc2c1ncn2[C@H]1CC[C@@H](CO)O1 | - | >1000 µM
CC(C)=CC(=O)C[C@@H](C)[C@H]1CC[C@@]2(C)C3C(=O)C=C4C(CCC(=O)C4(C)C)[C@]3(C=O)CC[C@]12C | - | 92.1 µg/mL
Cc1cn([C@H]2C[C@H](OS(C)(=O)=O)[C@@H](CO)O2)c(=O)[nH]c1=O | - | >100 µM
CC(=O)C[C@@H](C)[C@H]1CC[C@@]2(C)C3C(=O)C[C@@]45OC[C@]3(CC[C@]12C)C4CCC(=O)C5(C)C | - | 165.2 µg/mL
C[C@@H]1C(=O)[C@@]2(C)CC[C@]34C[C@]56OC(=O)C[C@H]5O[C@@](C)(CO)[C@@H]6C[C@@H]5O[C@@]53C(=O)[C@@]3(O[C@@]5(C[C@H](C)C(=O)O5)[C@@H]1[C@H]32)O4 | MTT | 83 µg/mL
C=C(C)[C@@]12OCO[C@@H]1[C@@H]1[C@H](O)[C@@](C)(O)[C@@H](OC(C)=O)[C@@]3(O)C(C[C@H](C)[C@@H]3O)[C@@]1(Oc1ccccc1)[C@H](C)[C@@H]2OC(=O)c1ccccc1 | MTT | >200 µg/mL
CC1=C(C(=O)O[C@]23OCC4(C)C2(C)C(=O)CC2([C@H](C)CC[C@@]24O)[C@H]3O)CCC1 | MTT | 261.3 µM
CO[C@H]1/C=C/O[C@@]2(C)Oc3c(C)c(O)c4c(c3C2=O)C(=O)C(SCCCCCCCOC(=O)CCCC(=O)OC[C@H]2O[C@@H](n3cc(C)c(=O)[nH]c3=O)C[C@@H]2N=[N+]=[N-])=C(NC(=O)/C(C)=C\C=C\[C@H](C)[C@H](O)[C@@H](C)[C@@H](O)[C@@H](C)[C@H](OC(C)=O)[C@@H]1C)C4=O | - | >30 µM
O=C(CC1(O)C(=O)Nc2ccc(Cl)cc21)c1ccc(Cl)c(Cl)c1 | MTT | 119 µM

The last 9 rows once more:

structure | method | value
Nc1ncnc2c1ncn2[C@H]1CC[C@@H](CO)O1 | - | >1000 µM
CC(C)=CC(=O)C[C@@H](C)[C@H]1CC[C@@]2(C)C3C(=O)C=C4C(CCC(=O)C4(C)C)[C@]3(C=O)CC[C@]12C | - | 92.1 µg/mL
Cc1cn([C@H]2C[C@H](OS(C)(=O)=O)[C@@H](CO)O2)c(=O)[nH]c1=O | - | >100 µM
CC(=O)C[C@@H](C)[C@H]1CC[C@@]2(C)C3C(=O)C[C@@]45OC[C@]3(CC[C@]12C)C4CCC(=O)C5(C)C | - | 165.2 µg/mL
C[C@@H]1C(=O)[C@@]2(C)CC[C@]34C[C@]56OC(=O)C[C@H]5O[C@@](C)(CO)[C@@H]6C[C@@H]5O[C@@]53C(=O)[C@@]3(O[C@@]5(C[C@H](C)C(=O)O5)[C@@H]1[C@H]32)O4 | MTT | 83 µg/mL
C=C(C)[C@@]12OCO[C@@H]1[C@@H]1[C@H](O)[C@@](C)(O)[C@@H](OC(C)=O)[C@@]3(O)C(C[C@H](C)[C@@H]3O)[C@@]1(Oc1ccccc1)[C@H](C)[C@@H]2OC(=O)c1ccccc1 | MTT | >200 µg/mL
CC1=C(C(=O)O[C@]23OCC4(C)C2(C)C(=O)CC2([C@H](C)CC[C@@]24O)[C@H]3O)CCC1 | MTT | 261.3 µM
CO[C@H]1/C=C/O[C@@]2(C)Oc3c(C)c(O)c4c(c3C2=O)C(=O)C(SCCCCCCCOC(=O)CCCC(=O)OC[C@H]2O[C@@H](n3cc(C)c(=O)[nH]c3=O)C[C@@H]2N=[N+]=[N-])=C(NC(=O)/C(C)=C\C=C\[C@H](C)[C@H](O)[C@@H](C)[C@@H](O)[C@@H](C)[C@H](OC(C)=O)[C@@H]1C)C4=O | - | >30 µM
O=C(CC1(O)C(=O)Nc2ccc(Cl)cc21)c1ccc(Cl)c(Cl)c1 | MTT | 119 µM